Measurements reported in PubChem BioAssay AID1259414 (Drosophila RNAi Screening Center, 2018).
The screen tested about 24,000 reagents; shown is an unselected part of those that have a named target and a result. Over the whole deposit, about 1,210 (5%) are marked active. 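Inactive calls also include excluded dsRNAs with several or no targets, genes unexpressed in JW18, and well A1, regardless of score.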 The numbers tell different reagents against one gene apart. A plus sign joins genes that one reagent is predicted to hit. Reagent sequences are not shown.

Aim: 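Fly genes that alter Wolbachia amount inside host cells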 (primary screen)
System: Drosophila JW18 cells infected with Wolbachia
Reagents: long dsRNA against Drosophila genes, 0.25 µg dsRNA per well of a 384-well plate
Timing: 5 days
Challenge: cells persistently infected with Wolbachia before knock-down; no added drug
Detection: 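Imaged fluorescence in situ signal for Wolbachia 23S rRNA per DAPI-counted host cell, given as a robust z-score within each plate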
Reading the numbers: Wolbachia per cell robust z: higher = more Wolbachia per host cell than the plate typical
Hit rule: 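Hit when robust z is 1.5 or more, or -1.5 or less, in at least two of three replicates; excludes dsRNAs with several or no targets, genes not expressed in JW18 and well A1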

bsk #1 gave Wolbachia per cell robust z, rep 1 = 0.788; Wolbachia per cell robust z, rep 2 = -0.213; Wolbachia per cell robust z, rep 3 = 0.501; inactive. After knock-down of bsk #2, the record shows Wolbachia per cell robust z, rep 1 = 0.49; Wolbachia per cell robust z, rep 2 = 1.22; Wolbachia per cell robust z, rep 3 = 1.97; inactive. rdog #1 showed Wolbachia per cell robust z, rep 1 = 1.23; Wolbachia per cell robust z, rep 2 = 0.294; Wolbachia per cell robust z, rep 3 = -8.42; inactive. Depletion of rdog #2 came out at: Wolbachia per cell robust z, rep 1 = -2.85; Wolbachia per cell robust z, rep 2 = -1.17; Wolbachia per cell robust z, rep 3 = -0.791; inactive. After knock-down of Rab9Fa + Rab9E + Rab9Db + 1 more, the screen gave Wolbachia per cell robust z, rep 1 = -5.23; Wolbachia per cell robust z, rep 2 = 0.654; Wolbachia per cell robust z, rep 3 = 0.29; inactive. For SKIP #1 the deposit lists Wolbachia per cell robust z, rep 1 = -0.129; Wolbachia per cell robust z, rep 2 = -4.28; Wolbachia per cell robust z, rep 3 = 0.181; inactive.

With knock-down of SKIP #2, the screen gave Wolbachia per cell robust z, rep 1 = -1.06; Wolbachia per cell robust z, rep 2 = -1.3; Wolbachia per cell robust z, rep 3 = 0.424; inactive. SKIP #3 scored Wolbachia per cell robust z, rep 1 = 0.78; Wolbachia per cell robust z, rep 2 = 0.568; Wolbachia per cell robust z, rep 3 = 0.571; inactive. SKIP #4 scored Wolbachia per cell robust z, rep 1 = 0.632; Wolbachia per cell robust z, rep 2 = 0.553; Wolbachia per cell robust z, rep 3 = 0.0442; inactive. For SKIP #5, the values are Wolbachia per cell robust z, rep 1 = 1.37; Wolbachia per cell robust z, rep 2 = 0.743; Wolbachia per cell robust z, rep 3 = -1.3; inactive. Against CG15546 #1 the deposit lists Wolbachia per cell robust z, rep 1 = 0.904; Wolbachia per cell robust z, rep 2 = -1.32; Wolbachia per cell robust z, rep 3 = 0.567; inactive. For CG15546 #2, the values are Wolbachia per cell robust z, rep 1 = 1.05; Wolbachia per cell robust z, rep 2 = -1.32; Wolbachia per cell robust z, rep 3 = -0.903; inactive.

With knock-down of CG15546 #3 the results were Wolbachia per cell robust z, rep 1 = -0.33; Wolbachia per cell robust z, rep 2 = -0.642; Wolbachia per cell robust z, rep 3 = -0.154; inactive. CG1896 scored Wolbachia per cell robust z, rep 1 = 0.711; Wolbachia per cell robust z, rep 2 = 1.54; Wolbachia per cell robust z, rep 3 = -6.71; inactive.

Quoted from above for reference:
bsk #2: Wolbachia per cell robust z, rep 1 = 0.49; Wolbachia per cell robust z, rep 2 = 1.22; Wolbachia per cell robust z, rep 3 = 1.97; call = inactive
rdog #1: Wolbachia per cell robust z, rep 1 = 1.23; Wolbachia per cell robust z, rep 2 = 0.294; Wolbachia per cell robust z, rep 3 = -8.42; call = inactive

Further results follow.
sax #1 gave Wolbachia per cell robust z, rep 1 = 0.514; Wolbachia per cell robust z, rep 2 = -0.0357; Wolbachia per cell robust z, rep 3 = -3.44; inactive. Silencing of sax #2 gave: Wolbachia per cell robust z, rep 1 = 0.182; Wolbachia per cell robust z, rep 2 = -0.391; Wolbachia per cell robust z, rep 3 = -0.895; inactive. Depletion of CG1440 came out at: Wolbachia per cell robust z, rep 1 = 0.934; Wolbachia per cell robust z, rep 2 = 1.12; Wolbachia per cell robust z, rep 3 = -0.926; inactive. With knock-down of Phf7, the screen gave Wolbachia per cell robust z, rep 1 = 0.509; Wolbachia per cell robust z, rep 2 = -0.519; Wolbachia per cell robust z, rep 3 = 0.565; inactive. Or7a gave Wolbachia per cell robust z, rep 1 = 0.986; Wolbachia per cell robust z, rep 2 = 0.437; Wolbachia per cell robust z, rep 3 = -0.0869; inactive. With knock-down of CG7031 #1 the results were Wolbachia per cell robust z, rep 1 = 0.444; Wolbachia per cell robust z, rep 2 = 0.558; Wolbachia per cell robust z, rep 3 = -3.7; inactive.

Silencing of CG7031 #2 came out at: Wolbachia per cell robust z, rep 1 = 0.926; Wolbachia per cell robust z, rep 2 = 0.662; Wolbachia per cell robust z, rep 3 = -1.1; inactive. CG3919 showed Wolbachia per cell robust z, rep 1 = -0.829; Wolbachia per cell robust z, rep 2 = -0.267; Wolbachia per cell robust z, rep 3 = 0.326; inactive. CG5561 gave Wolbachia per cell robust z, rep 1 = -0.435; Wolbachia per cell robust z, rep 2 = 0.571; Wolbachia per cell robust z, rep 3 = -0.464; inactive. l(1)G0289 #1 scored Wolbachia per cell robust z, rep 1 = -0.262; Wolbachia per cell robust z, rep 2 = 0.408; Wolbachia per cell robust z, rep 3 = -0.513; inactive. Against l(1)G0289 #2 the deposit lists Wolbachia per cell robust z, rep 1 = -0.00915; Wolbachia per cell robust z, rep 2 = -0.379; Wolbachia per cell robust z, rep 3 = 0.331; inactive.
